Data taken from patent publication US5532231A, “Antibacterial agent” (priority 1994, dated 1996).

Experiment: Adherence to polystyrene in the absence of E. coli ESS
Details: after 22 hours, ethanol extraction

| SMILES | amount still bound to the polystyrene [µg] |
| --- | --- |
| CCCC1OC(=O)C(C)CC(C)CCCCC(=O)CCCC(CC)CCCC(COC)CCC(O)C(O)CC(O)CNC1=O (centres unmarked) [Focusin] | 8 |
| CCCC1OC(=O)C(C)CC(C)CCCCC(=O)CCCC(CC)C=CC=C(COC)CCC(O)C(O)CC(O)CNC1=O (centres unmarked) [TA, reference compound] | 1 |
